Results published in patent publication US12285407B2, “Bis-indolylmethane derivatives and uses thereof” (The University of The West Indies, priority 2018, dated 2025).

Test system: α-hemolysin production in Staphylococcus aureus
Assay: Inhibition of hemolysin production, sheep blood hemolytic assay
Type: cell-based

Structure (SMILES): Oc1cc(C(c2c[nH]c3ccccc23)c2c[nH]c3ccccc23)cc(O)c1O [SP-BIM 13, 5-(di(1H-indol-3-yl)methyl)benzene-1,2,3-triol]
- hemolysin production in S. aureus cells: inhibits hemolysin production
